Values from PubChem BioAssay AID1259414 (Drosophila RNAi Screening Center, 2018)
Purpose: 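Fly genes that alter Wolbachia amount inside host cells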 (primary screen). Cells: Drosophila JW18 cells infected with Wolbachia. Reagents: long dsRNA against Drosophila genes, 0.25 µg dsRNA per well of a 384-well plate. Time to read-out: 5 days. Conditions: cells persistently infected with Wolbachia before knock-down; no added drug. Measurement: 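Automated imaging of bacterial rRNA staining divided by host cell count, reported as plate-normalised robust z-score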. Reading the numbers: Wolbachia per cell robust z: higher = more Wolbachia per host cell than the plate typical. Hit rule: 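Active if absolute robust z reaches 1.5 in two or more of three replicates, leaving out multi- or no-target dsRNAs, genes unexpressed in JW18 and A1 wells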.
In all, the deposit lists about 24,000 reagents; below is an unselected part of those that have a named target and a result. Of all reagents, about 1,210 (5%) got an active call. 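Inactive calls also include excluded dsRNAs with several or no targets, genes unexpressed in JW18, and well A1, regardless of score.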 A number with no mark means an inactive call. Names joined by + are all predicted targets of the reagent.

no.	Gene	DRSC id	Wolbachia per cell robust z, rep 1	Wolbachia per cell robust z, rep 2	Wolbachia per cell robust z, rep 3
1	dpa	DRSC07604	0.736	0.621	1.14
2	rempA + Tspo	DRSC00533	-1.25	-4.89	0.86
3	l(2)37Cd	DRSC02069	1.15	0.753	0.287
4	CG7653	DRSC01886	0.29	0.34	1.24
5	Tip60	DRSC18661	-0.0443	-7.12	1.75
6	nac	DRSC16520	-2.42	0.223	-0.417
7	CG34027	DRSC37751	-1.06	-0.946	-1.92
8	CG11986	DRSC14461	0.718	0.619	-4.08
9	CG11986	DRSC24504	1.2	-0.0593	-0.151
10	pkm	DRSC19674	-1.56	0.169	0.217
11	pkm	DRSC29050	0.0974	-6.71	-0.225
12	Eaf6	DRSC09901	-1.04	-0.974	-0.731
13	CG34208	DRSC38718	1.41	-0.171	1.69
14	PIG-T	DRSC17774	0.805	-4.06	0.731
15	CG1529	DRSC20515	0.797	0.103	-0.408
16	CG1529	DRSC24433	1.64	1.26	0.609
17	l(2)46Cc (retired record)	DRSC06110	-0.596	0.286	0.322
18	l(2)46Cc (retired record)	DRSC06236	0.829	0.994	-3.11
19	CG5662	DRSC19957	0.628	-1.07	0.674
20	CG15412	DRSC00427	0.586	-0.856	-0.418
21	hdm	DRSC18013	0.182	-1.83	0.78
22	CG14556	DRSC14899	-3.31	-1.51	-0.466
23	Tig	DRSC03456	1.09	1.34	1.57
24	Tig	DRSC28388	0.623	0.266	1.24
25	Cpr72Eb	DRSC09870	-0.754	0.413	-7.52
26	CG5359	DRSC15780	0.866	-4.08	-0.0505
27	ear	DRSC15675	-1.28	-2.52	-1.48
28	ear	DRSC24291	-2.41 (active)	-4.28	-2.72

Hits (from the list above):
Gene	DRSC id	Wolbachia per cell robust z, rep 1	Wolbachia per cell robust z, rep 2	Wolbachia per cell robust z, rep 3
ear	DRSC24291	-2.41 (active)	-4.28	-2.72
